Results deposited as PubChem BioAssay AID504761 (Drosophila RNAi Screening Center, 2011)
Assay: 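Insect host genes that dengue virus relies on to spread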 (primary screen). Cell system: D.Mel-2 cells from Drosophila. Reagent: long dsRNA against Drosophila genes. Conditions: infection with dengue virus type 2; dose and infection time not stated. Measurement: 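Cells stained for dengue envelope protein and imaged; percent of infected cells per well on duplicate plates, ranked by infection, with stained nuclei counted for cell number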. Reading the numbers: infection score: higher = more virus-infected cells; cell count: higher = more cells in the well. Rule for the call: 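Very low infection ranking in both replicate wells (chance probability at most 0.065), then a retest showing infection dropped 1.5-fold or more at p below 0.05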. Meaning of the calls: active = confirmed: knock-down lowers infection; inactive = not picked or not confirmed.
The screen tested about 22,000 reagents; this is an unselected part of those with a known target gene and a result. Over the whole deposit, 116 (0.52%) got an active call. 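Calls depend on retest data that are not deposited; infection was ranked per plate without normalising between plates; the unit of the infection score is not given.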 Raw values vary from plate to plate and are shown uncorrected. Unmarked entries are inactive. Reagents against one gene are numbered here. Further read-outs or replicates are left out here. Not stated in the record: the amount of reagent, the time to read-out.

CG12116 → infection score, replicate 1 = 15.3; cell count, replicate 1 = 5954
Aplip1 #1 → infection score, replicate 1 = 2.52; cell count, replicate 1 = 6340
Aplip1 #2 → infection score, replicate 1 = 18.2; cell count, replicate 1 = 6238
Aplip1 #3 → infection score, replicate 1 = 4.11; cell count, replicate 1 = 6883
BomS2 → infection score, replicate 1 = 2.49; cell count, replicate 1 = 6177
stw #1 → infection score, replicate 1 = 8.41; cell count, replicate 1 = 6182
stw #2 → infection score, replicate 1 = 3.02; cell count, replicate 1 = 6625
stw #3 → infection score, replicate 1 = 2.55; cell count, replicate 1 = 6285
stw #4 → infection score, replicate 1 = 15.5; cell count, replicate 1 = 5712
Sec13 → infection score, replicate 1 = 72.7; cell count, replicate 1 = 3354
C3G #1 → infection score, replicate 1 = 5.39; cell count, replicate 1 = 6395
C3G #2 → infection score, replicate 1 = 2.14; cell count, replicate 1 = 5899
C3G #3 → infection score, replicate 1 = 11.5; cell count, replicate 1 = 4375
spab → cell count, replicate 1 = 428

The list goes on, starting with the last 3 of the part before.
C3G #2 → infection score, replicate 1 = 2.14; cell count, replicate 1 = 5899
C3G #3 → infection score, replicate 1 = 11.5; cell count, replicate 1 = 4375
spab → cell count, replicate 1 = 428
Vlet #1 → infection score, replicate 1 = 2.46; cell count, replicate 1 = 6551
Vlet #2 → infection score, replicate 1 = 8.28; cell count, replicate 1 = 5774
Idgf4 #1 → infection score, replicate 1 = 3.39; cell count, replicate 1 = 6410
Idgf4 #2 → infection score, replicate 1 = 1.39; cell count, replicate 1 = 3461
Rb97D #1 → infection score, replicate 1 = 9.64; cell count, replicate 1 = 6101
Rb97D #2 → infection score, replicate 1 = 5.47; cell count, replicate 1 = 6364
sbm → infection score, replicate 1 = 5.33; cell count, replicate 1 = 6092
